This data set relates to HRV-14. Put plainly: Antirhinoviral H1-HeLa cell culture assay (XTT cell protection, EC50), HRV-14. Format: cell-based, human rhinovirus (HRV) serotype-14 in H1-HeLa cells. The method, then: Antirhinoviral H1-HeLa Cell Culture Assay:
In this cell protection assay, the ability of compounds to protect cells against HRV infection was measured by the XTT dye reduction method, which is described in Weislow et al., J. Natl. Cancer Inst. […] H1-HeLa cells were infected with HRV-14 at a multiplicity of infection (m.o.i.) of 0.13 (virus particles/cell) or mock-infected with medium only. Infected or mock-infected cells were resuspended at 8×10^5 cells per mL, and incubated with appropriate concentrations of the compounds to be tested. Two days later, XTT/PMS was added to test plates and the amount of formazan produced was quantified spectrophotometrically at 450/650 nm. […] The therapeutic index (TI) was calculated by dividing the CC50 value by the EC50 value.
All strains of human rhinovirus (HRV) for use in this assay were purchased from American Type Culture Collection (ATCC), except for HRV serotype-14 (produced from the infectious cDNA clone constructed by Dr. Robert Rueckert, Institute for Molecular Virology, University of Wisconsin, Madison, Wis.). HRV stocks were propagated and viral assays were performed in H1-HeLa cells (ATCC). Cells were grown in minimal essential medium with 10% fetal bovine serum, available from Life Technologies (Gaithersburg, Md.).
In general terms: Formazan colour is commonly taken as a measure of viable cells.
Molecule `CCOC(=O)/C=C/[C@H](C[C@@H]1CCNC1=O)NC(=O)[C@H](Cc1ccccc1)n1ccc2cc[nH]c2c1=O` [Compound 3] came in with a TI above 8.
The value for `CCOC(=O)/C=C/[C@H](CCC(N)=O)NC(=O)[C@H](Cc1ccccc1)n1cccc(NC(C)=O)c1=O` [Compound 8, trans-(2′S,4S)-4-[2′-(3″-Acetylamino-2″-oxo-2″H-pyridin-1″-yl)-3′-phenypropionylamino]-6-carbamoylhex-2-enoic Acid Ethyl Ester] was above 11.
`CCOC(=O)/C=C/[C@H](CCC(N)=O)NC(=O)[C@H](Cc1ccccc1)n1cccc(NC(=O)C(C)(C)C)c1=O` [Compound 9, trans-(2′S,4S)-6-Carbamoyl-4-{2′-[3″-(2′″,2′″-dimethylpropionylamino)-2″-oxo-2″H-pyridin-1″-yl]-3′-phenylpropionylamino}hex-2-enoic Acid Ethyl Ester] came in with a TI above 19.
For `CCOC(=O)/C=C/[C@H](CCC(N)=O)NC(=O)[C@H](Cc1ccccc1)n1ccc(C)c(NC(=O)OCc2ccccc2)c1=O` [Compound 12, trans-(2′S,4S)-4-[2′-(3″-Benzyloxycarbonylamino-4″-methyl-2″-oxo-2″H-pyridin-1″-yl)-3′-phenylpropionylamino]-6-carbamoylhex-2-enoic Acid Ethyl Ester], the TI was above 133.
Consider `CCOC(=O)/C=C/[C@H](CCC(N)=O)NC(=O)[C@H](CC1CCCCC1)n1cccc(NC(=O)OCc2ccccc2)c1=O` [Compound 15, trans-(2′S,4S)-4-[2′-(3″-Benzyloxycarbonylamino-2″-oxo-2″H-pyridin-1″-yl)-3′-cyclohexylpropionylamino]-6-carbamoyl-hex-2-enoic Acid Ethyl Ester], for which the TI is above 56.
In turn, `O=C1OCC/C1=C\[C@H](C[C@@H]1CCNC1=O)NC(=O)[C@H](Cc1ccc(F)cc1)n1cccc(NC(=O)C2CCCC2)c1=O` [Compound 16, trans-(2′″S,2′″S,3′″″S)-Cyclopentanecarboxylic acid(1-{2′-(4″-fluorophenyl)-1′-[2′-(2″″-oxo-dihydrofuran-3″″-ylidene)-1-(2′″″-oxopyrrolidin-3′″″-ylmethyl)ethylcarbamoyl]ethyl}-2-oxo-1,2-dihydropyridin-3-yl)amide] showed a TI above 31.
Next, `CCOC(=O)/C=C/[C@H](CCC(N)=O)NC(=O)[C@H](Cc1ccccc1)n1ccc(C)c(NC(=O)c2cc(C)on2)c1=O` [Compound 18, trans-(2′S,4S)-6-Carbamoyl-4-(2′-{4″-methyl-3″-[(5′″-methylisoxazole-3′″-carbonyl)amino]-2″-oxo-2″H-pyridin-1″-yl}-3′-phenylpropionylamino)hex-2-enoic Acid Ethyl Ester]: above 80; `CCOC(=O)/C=C/[C@H](C[C@@H]1CCNC1=O)NC(=O)[C@H](Cc1ccccc1)n1cccc(NC(=O)OCc2ccccc2)c1=O` [Compound 19, trans-(2′S,3′″S,4S)-4-[2′-(3″-Benzyloxy-carbonylamino-2″-oxo-2″H-pyridin-1″-yl)-3′-phenylpropionylamino]-5-(2′″-oxopyrrolidin-3′″-yl)pent-2-enoic Acid Ethyl Ester]: above 333.
On to `Cc1cc(C(=O)Nc2cccn([C@@H](Cc3ccc(F)cc3)C(=O)N[C@H](/C=C3\CCOC3=O)C[C@@H]3CCNC3=O)c2=O)no1` [Compound 20, trans-(2″S,2″″S,3″″″S)-5-Methylisoxazole-3-carboxylic Acid (1′-{2″-(4′″-fluorophenyl)-1″-[2″″-(2′″″-oxodihydrofuran-3′″″-ylidene)-1″″-(2″″″oxopyrrolidin-3″″″-ylmethyl)ethylcarbamoyl]ethyl}-2′-oxo-1′,2′-dihydropyridin-3′-yl)amide], for which the TI is recorded as above 667.
Take `CCOC(=O)/C=C/[C@H](C[C@H]1CCNC1=O)NC(=O)[C@H](Cc1ccccc1)n1cccc(NC(=O)OCc2ccccc2)c1=O` [Compound 21, trans-(2′S,3′″R,4S)-4-[2′-(3″-Benzyloxycarbonylamino-2″-oxo-2″H-pyridin-1″-yl)-3′-phenylpropionylamino]-5-(2′″-oxopyrrolidin-3′″-yl)pent-2-enoic Acid Ethyl Ester]: the TI was above 21.

For the origin of these results see patent US6514997B2, “Antipicornaviral compounds and compositions, their pharmaceutical uses, and materials for their synthesis” (Agouron Pharmaceuticals, Inc., priority 1999, dated 2003).
